Test results taken from PubChem BioAssay AID806 (SRMLSC, 2007).
Activity calls are given as the source filed them. No rule for the calls is given here.

System: virus-infected cells, CPE inhibition, dose response
Assay: PubChem AID 806

ClCCSc1nnc(-c2cccnc2)o1
EC50: inactive: 47.6 µM
EC90 (measured here: EC90 CPE inhibition): > 60 µM
CC50 (measured here: cytotoxicity, cell viability IC50): > 60 µM
